Data on three molecules can be found in patent publication US10786484B2, “Mono- or di-substituted indole derivatives as dengue viral replication inhibitors” (Janssen Pharmaceuticals, Inc., priority 2015, dated 2020).

Common to all, as to type: cell-based, Dengue virus
Data set [1] relates to DENV-2 16681 strain labeled with eGFP. The data set is described as follows: DENV-2 antiviral assay (eGFP fluorescence read-out in Vero cells). As to conditions: SI=CC50/EC50, DENV-2 antiviral assay. A digest of the protocol:
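Vero cells (2500/well) pre-plated with compound (9-step 5-fold series), infected next day with eGFP-labeled DENV-2 16681 at MOI 0.5 in MEM with 2% FCS; 3 days at 37° C. eGFP fluorescence read at 488 nm; inhibition versus virus and cell controls, EC50 by linear interpolation.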

For a further data set, the system named is DENV-1 strain TC974#666. The data set is described as follows: Tetravalent RT-qPCR assay Protocol A, serotype 1. The settings on record: RT-qPCR serotype 1 TC974#666. On the procedure:
(§1) The antiviral activity of the compounds of the invention was tested against DENV-1 strain TC974#666 (NCPV), DENV-2 strain 16681, DENV-3 strain H87 (NCPV) and DENV-4 strains H241 (NCPV) and EDEN (SG/06K2270DK1/2005; GenBank accession number QG398256) in a RT-qPCR assay. Therefore, Vero cells were infected with either DENV-1, or -2, or -3, or -4 in the presence or absence of test compounds. At day 3 post-infection, the cells were lysed and cell lysates were used to prepare cDNA of both a viral target (the 3′UTR of DENV; Table 2) and a cellular reference gene (β-actin, Table 2). Subsequently, a duplex real time PCR was performed on a Lightcycler480 instrument. The generated Cp value is inversely proportional to the amount of RNA expression of these targets. Inhibition of DENV replication by a test compound results in a shift of Cp's for the 3′UTR gene. On the other hand, if a test compound is toxic to the cells, a similar effect on β-actin expression will be observed. The comparative ΔΔCp method is used to calculate EC50, which is based on the relative gene expression of the target gene (3′UTR) normalized with the cellular housekeeping gene (β-actin). In addition, CC50 values are determined based on the Cp values acquired for the housekeeping gene β-actin.
(§2) The culture medium consisted of minimal essential medium supplemented with 2% of heat-inactivated fetal calf serum, 0.04% gentamycin (50 mg/mL) and 2 mM of L-glutamine. Vero cells, obtained from ECACC, were suspended in culture medium and 75 μL/well was added in 96-well plates (10000 cells/well), which already contain the antiviral compounds. […] In addition, each plate contains wells which are assigned as virus controls (containing cells and virus in the absence of compound) and cell controls (containing cells in the absence of virus and compound). Once the cells were added in the plates, the plates were incubated in a fully humidified incubator (37° C., 5% CO2) until the next day. Dengue viruses serotype-1, 2, 3 and 4 were diluted in order to obtain a Cp of ˜22-24 in the assay. Therefore, 25 μL of virus suspension, was added to all the wells containing test compound and to the wells assigned as virus control. In parallel, 25 μL of culture medium was added to the cell controls. Next, the plates were incubated for 3 days in a fully humidified incubator (37° C., 5% CO2). After 3 days, the supernatant was removed from the wells and the cells were washed twice with ice-cold PBS (−100 μL). The cell pellets within the 96-well plates were stored at −80° C. for at least 1 day. Next, RNA was extracted using the Cells-to-CT™ lysis kit, according to the manufacturer's guideline (Life Technologies). The cell lysates can be stored at −80° C. or immediately used in the reverse transcription step.
(§3) In preparation of the reverse transcription step, mix A (table 3A) was prepared and 7.57 μL/well was dispensed in a 96-well plate. After addition of 5 μL of the cell lysates, a five minute denaturation step at 75° C. was performed (table 3B). Afterwards, 7.43 μL of mix B was added (table 3C) and the reverse transcription step was initiated (table 3D) to generate cDNA.
(§4) Finally, a RT-qPCR mix was prepared, mix C (table 4A), and 22.02 μL/well was dispensed in 96-well LightCycler qPCR plates to which 3 μL of cDNA was added and the qPCR was performed according to the conditions in table 4B on a LightCycler 480.
(§5) Using the LightCycler software and an in-house LIMS system, dose response curves for each compound were calculated and the half maximal effective concentration (EC50) and the half maximal cytotoxic concentration (CC50) were determined (Tables 5-8).
In general terms: Real-time PCR tracks product formation cycle by cycle.

In a further data set the test system is DENV-2 strain 16681. As to the kind of experiment: Tetravalent RT-qPCR assay Protocol A, serotype 2. The settings on record: RT-qPCR serotype 2 16681. On the procedure: as §1, §2, §3, §4, §5
The next data set relates to DENV-3 strain H87. As to the kind of experiment: Tetravalent RT-qPCR assay Protocol A, serotype 3. As to conditions: RT-qPCR serotype 3 H87. The procedure: as §1, §2, §3, §4, §5
In the next data set the test system is DENV-4 strain H241. As to the kind of experiment: Tetravalent RT-qPCR assay Protocol A, serotype 4 H241. As to conditions: RT-qPCR serotype 4 H241. The procedure:
as §1, §2, §3, §4, §5

The test system of data set [2] is DENV-4 strain EDEN (SG/06K2270DK1/2005). The data set is described as follows: Tetravalent RT-qPCR assay Protocol A, serotype 4 EDEN. As to conditions: RT-qPCR serotype 4 EDEN. The procedure:
as §1, §2, §3, §4, §5

With `COc1cc(NC(C(=O)c2c[nH]c3c(C)c(Cl)ccc23)c2ccc(F)cc2OCCO)cc(S(C)(=O)=O)c1` (single isomer, unassigned) [Compound 4B, 1-(6-chloro-7-methyl-1H-indol-3-yl)-2-(4-fluoro-2-(2-hydroxyethoxy)phenyl)-2-((3-methoxy-5-(methylsulfonyl)phenyl)amino)ethanone], the SI was >16800 in data set [1]; >836 in the data set on DENV-1 strain TC974#666; >12700 in the data set on DENV-2 strain 16681; >76 in the data set on DENV-3 strain H87; 15 in the data set with DENV-4 strain H241; >1231 in data set [2].

For `COc1cc(NC(C(=O)c2c[nH]c3cc(F)c(F)cc23)c2ccc(F)cc2OCCO)cc(S(C)(=O)=O)c1` (single isomer, unassigned) [Compound 5A, 1-(5,6-difluoro-1H-indol-3-yl)-2-(4-fluoro-2-(2-hydroxyethoxy)phenyl)-2-((3-methoxy-5-(methylsulfonyl)phenyl)-amino)ethanone], the SI is reported as 6320 in data set [1]; >862 in the data set on DENV-1 strain TC974#666; 5370 with DENV-2 strain 16681; >36 in the data set with DENV-3 strain H87; >18 in the data set with DENV-4 strain H241; >1250 in data set [2].

Take `COc1cc(NC(C(=O)c2c[nH]c3cc(OC)c(C)cc23)c2ccc(F)cc2OCCO)cc(S(C)(=O)=O)c1` (single isomer, unassigned) [Compound 6A, 2-(4-fluoro-2-(2-hydroxyethoxy)phenyl)-2-((3-methoxy-5-(methylsulfonyl)phenyl)amino)-1-(6-methoxy-5-methyl-1H-indol-3-yl)ethanone]: the SI in data set [1] was 8410; in the data set on DENV-1 strain TC974#666 it was 1140; with DENV-2 strain 16681, 6320; in the data set with DENV-3 strain H87 it was 37; with DENV-4 strain H241, 28; in data set [2], 1048.
